The list shows a part of the results, in another mix than the full data. The source made the active and inactive calls. No stated cut-off is given here; in the data, active means activation above about 50%; inconclusive means mostly about 30% to 49%; inactive means weaker than that.

Chains of the proteins cited; added tags and fusions are not shown.
UniProt Q9GZU1, whole entry: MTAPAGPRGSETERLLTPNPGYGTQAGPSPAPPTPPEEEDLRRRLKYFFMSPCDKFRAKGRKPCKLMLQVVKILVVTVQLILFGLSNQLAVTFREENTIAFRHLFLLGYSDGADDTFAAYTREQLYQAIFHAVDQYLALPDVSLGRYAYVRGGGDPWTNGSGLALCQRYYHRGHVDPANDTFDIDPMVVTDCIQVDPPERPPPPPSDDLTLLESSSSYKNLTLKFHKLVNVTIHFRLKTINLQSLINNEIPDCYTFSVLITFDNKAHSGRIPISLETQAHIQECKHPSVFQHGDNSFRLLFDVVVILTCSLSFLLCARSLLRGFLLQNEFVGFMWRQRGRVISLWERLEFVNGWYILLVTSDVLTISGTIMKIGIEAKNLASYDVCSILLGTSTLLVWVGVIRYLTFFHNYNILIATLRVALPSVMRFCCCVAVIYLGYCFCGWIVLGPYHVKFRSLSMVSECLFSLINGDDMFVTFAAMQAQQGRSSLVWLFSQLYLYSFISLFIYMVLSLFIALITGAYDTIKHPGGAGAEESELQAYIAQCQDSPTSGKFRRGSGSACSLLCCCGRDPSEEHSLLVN

The results in this text go back to PubChem BioAssay AID624414 (National Center for Advancing Translational Sciences (NCATS), 2012).

The target of the experiment is Mucolipin-1 (Homo sapiens) (UniProt Q9GZU1). Put plainly: qHTS for Agonists of the Human Mucolipin Transient Receptor Potential 1 (TRPML1). Further: 0% is about no effect. Conditions: TRPML1-expressing cells, Ca2+ dye fluorescence, FDSS; active compounds read high. The source says: Mutations of human Mucolipin transient receptor potential 1 (TRPML1) cause type IV mucolipidosis (ML4), a devastating neurodegenerative disease in young children. […] Currently, there is no treatment for ML4. […] Under physiological conditions, TRPMLs regulate membrane trafficking by transducing information about PI(3,5)P2 levels into changes in juxtaorganellar Ca2+, thereby triggering membrane fusion/fission events in the late endocytic pathways (endolysosomal trafficking). In addition, TRPML1 mediates release of Fe2+ from late endosomes and lysosomes, which is essential for cellular iron metabolism. Thus, impaired ion (Ca2+ and Fe2+) homeostasis underlies lysosomal dysfunction and ML4 phenotypes. In ML4 cells, the problem is twofold. First, defective Ca2+-dependent membrane trafficking due to TRPML1-deficiency causes accumulation of lipids and other bio-materials in the lysosome. The second strike comes from the lysosomal iron overload (due to impairment of TRPML1's Fe2+ conductivity), which converts the accumulated materials into the nondegradable (resistant to lysosomal degradation) lipofuscin (also called aging pigment) in the lysosome. Lipofuscin accumulation dramatically compromises the functions of lysosomes.
Niemann-Pick type C (NPC) disease is another lysosome storage disease (LSD) with severe neurodegeneration during the childhood. Currently, there is no cure for NPC. […] Thus, TRPML1 is likely to be an essential regulator of lysosome ion homeostasis. We specifically hypothesize that stimulating TRPML1's Fe2+/Ca2+ channel activity in the lysosome using synthetic agonists can alleviate neurodegeneration associated with ML4 or NPC.
To this end, a high throughput screen was developed in a miniaturized format to screen against the Molecular Libraries Small Molecule Repository (MLSMR) to find small molecules that act either as inhibitors or agonist against the TRPML1 channel.
NIH Chemical Genomics Center [NCGC]
NIH Molecular Libraries Probe Centers Network [MLPCN]
Assay Submitter (PI): Haoxing Xu, University of Michigan Ann Arbor
TRPML1-DL cells are dissociated from flasks, counted and, brought up to a density of 500,000 cells per mL of media containing a 1X Tet inducer. Using a Multidrop Combi, 3uL of this cell solution is dispensed to each well of a 1536 TC treated, black, clear bottom hi base plate for a final cell density of 1,500 cells per well. The assay plates are incubated overnight (approximately 16 hours) at 37 degrees C and 5% CO2. Using a Multidrop Combi, 2uL of ABD Ca8 no wash dye plus quencher is added to each well. The assay plates incubate at room temperature in the dark for 45-90 minutes. The assay plate is read on the FDSS using the following protocol: 10 second baseline read, 23nL of compounds and controls are added using 1536 pintool, agonist read for 110 seconds, 1 uL EC80 addition (4uM final 54-4 diluted in media), antagonist read for 110 seconds.
Consider `CN1CCC(Nc2ccc(Cl)cc2)CC1`, for which the activation was inactive: 0.435%.
For `COc1cc(C(=O)NCC2(N3CCOCC3)CCCCC2)cc(OC)c1OC` the value was inactive: 0.99%; for `COc1cccc(C(c2nnnn2C2CCCC2)N2CCC(n3c(=O)[nH]c4ccccc43)CC2)c1OC` (configuration not stated), inactive: -0.252%.
As for `COc1cc(OC)cc(C(=O)NCC2(N3CCOCC3)CCCCC2)c1`, the activation was inactive: -0.228%.
`CCC(CO)(C(=O)OC1CN2CCC1CC2)c1ccccc1` (configuration not stated): the activation is inactive: -0.0553%.
For `ClCCN(CCCl)c1ccc(C=C2C=CC=C2)cc1` the value was inactive: -0.444%; for `NN(c1ccccc1)C1CCN(CCc2ccccc2)CC1`, inactive: -0.0313%; for `O=C(O)C1(Nc2ccccc2)CCN(Cc2ccccc2)CC1`, inactive: -0.18%.
For `CC(C)(C)OC(=O)N1CCC(Nc2ccccc2)CC1` the value was inactive: 0.0726%; for `O=c1[nH]c2ccccc2n1C1CCN(C(c2cc3ccccc3o2)c2nnnn2C2CCCC2)CC1` (configuration not stated), inactive: -0.599%; for `CCCOc1ccc(C(=O)NCC2(N(C)C)CCCCC2)cc1`, inactive: -0.095%.
For `ClCCN(CCCl)c1ccccc1` the value was inactive: 0%; for `CN1CCC(Nc2ccc(F)c(Cl)c2)CC1`, inactive: 0.531%.
With `CCOc1ncccc1C(=O)NCC1(N2CCOCC2)CCCCC1`, the activation was inactive: -0.503%.
Take `COc1ccc(Cl)cc1C(=O)NCC1(N2CCOCC2)CCCCC1`: the activation is inactive: 21.4%.
For `O=C1C(O)=C([N+](=O)[O-])C(=O)C(O)=C1[N+](=O)[O-]` the value was inactive: -0.419%; for `N#CC1(Nc2ccccc2)CCN(Cc2ccccc2)CC1`, inactive: 0.203%.
For `O=C(NCC1(N2CCCCC2)CCCCC1)c1ccc(Cl)s1` the value was inactive: 1.2%; for `O=c1[nH]c2ccccc2n1C1CCN(C(c2cc3ccccc3o2)c2nnnn2C2CCCCC2)CC1` (configuration not stated), inactive: -0.298%.
For `O=C(OC1CN2CCC1CC2)C1c2ccccc2Oc2ccccc21` (configuration not stated) the value was inactive: -0.503%; for `CCCCn1nnnc1C(c1ccc(OC)cc1)N1CCC(n2c(=O)[nH]c3ccccc32)CC1` (configuration not stated), inactive: -0.158%.
Turning to `CCOC(=O)N1CCC(Nc2ccc(OC)cc2)CC1`, the activation is inactive: 0.689%.
In the case of `Cc1cc(C)cc(N(C(=O)c2ccccc2)C2CCN(C(=O)OC(C)(C)C)CC2)c1`, the activation was inactive: 0.0844%.
For `O=C(NCC1(N2CCCCC2)CCCCC1)c1ccc(Cl)nc1` the value was inactive: -0.525%; for `O=c1[nH]c2ccccc2n1C1CCN(C(c2ccccc2OC(F)(F)F)c2nnnn2C2CCCCC2)CC1` (configuration not stated), inactive: 2.19%.
For `O=C(NCC1(N2CCOCC2)CCCCC1)c1cc2ccccc2o1` the value was inactive: -0.618%.
For `Cc1cccc(NC2(C#N)CCN(Cc3ccccc3)CC2)c1` the value was inactive: 0.54%; for `CSc1ccccc1C(=O)NCC1(N2CCCCC2)CCCCC1`, inactive: -0.111%; for `COc1ccc(C(=O)NCC2(N3CCCCC3)CCCCC2)c(OC)c1OC`, inactive: 0.218%.
On to `CC(C)(C)OC(=O)N1CCC(N(C(=O)c2ccccc2)c2ccc(F)cc2)CC1`, for which the activation was inactive: 1.93%.
As to `CCC(c1nnnn1C1CCCC1)N1CCC(n2c(=O)[nH]c3ccccc32)CC1` (configuration not stated), the activation is inactive: 0.569%.
For `COc1ccc(C(=O)NCC2(N3CCCCC3)CCCCC2)cc1` the value was inactive: -0.458%; for `CCCCn1nnnc1C(CC)N1CCC(n2c(=O)[nH]c3ccccc32)CC1` (configuration not stated), inactive: -0.541%.
For `O=C(NCC1(N2CCCCC2)CCCCC1)c1cccs1` the value was inactive: 0.729%; for `CCCCn1nnnc1C(c1cccs1)N1CCC(n2c(=O)[nH]c3ccccc32)CC1` (configuration not stated), inactive: -0.221%.
For `O=C(NCC1(N2CCCCC2)CCCCC1)c1ccc(=O)[nH]c1` the value was inactive: -0.361%; for `CCOC(=O)N1CCC(Nc2cccc(C)c2)CC1`, inactive: 1.36%; for `COc1cc(C(=O)NCC2(N(C)C)CCCCC2)ccc1OC(F)F`, inactive: -0.578%.
For the molecule `O=c1[nH]c2ccccc2n1C1CCN(C(c2cccc3ccccc23)c2nnnn2C2CCCC2)CC1` (configuration not stated), the activation is inactive: 1.01%.
For `O=c1[nH]c2ccccc2n1C1CCN(C(c2ccccc2)c2nnnn2C2CCCCC2)CC1` (configuration not stated) the value was inactive: -0.19%.
For the molecule `COc1ccccc1C(=O)NCC1(N2CCOCC2)CCCCC1`, the activation was inactive: -0.629%.
Take `CCOC(=O)N1CCC(Nc2ccc(F)cc2)CC1`: the activation was inactive: 0.321%.
For `COc1ccc(NC2CCN(CCc3ccccc3)CC2)c(OC)c1` the value was inactive: 2.18%; for `CCCCOc1ccc(C(=O)NCC2(N3CCOCC3)CCCCC2)cc1`, inactive: 1.1%.
Take `O=P1(N(CCCl)CCCl)SCCCS1`: the activation was inactive: 1.09%.
For `CCCCn1nnnc1C(c1cc2ccccc2o1)N1CCC(n2c(=O)[nH]c3ccccc32)CC1` (configuration not stated) the value was inactive: 0.221%; for `O=C(NCC1(N2CCCCC2)CCCCC1)c1ccc(F)cc1`, inactive: 0.697%.
